# PubChem BioAssay AID485367 (National Center for Advancing Translational Sciences (NCATS), 2010)
# Amino acid sequences for entries named in this document (tags omitted).
# UniProt O15648, whole entry: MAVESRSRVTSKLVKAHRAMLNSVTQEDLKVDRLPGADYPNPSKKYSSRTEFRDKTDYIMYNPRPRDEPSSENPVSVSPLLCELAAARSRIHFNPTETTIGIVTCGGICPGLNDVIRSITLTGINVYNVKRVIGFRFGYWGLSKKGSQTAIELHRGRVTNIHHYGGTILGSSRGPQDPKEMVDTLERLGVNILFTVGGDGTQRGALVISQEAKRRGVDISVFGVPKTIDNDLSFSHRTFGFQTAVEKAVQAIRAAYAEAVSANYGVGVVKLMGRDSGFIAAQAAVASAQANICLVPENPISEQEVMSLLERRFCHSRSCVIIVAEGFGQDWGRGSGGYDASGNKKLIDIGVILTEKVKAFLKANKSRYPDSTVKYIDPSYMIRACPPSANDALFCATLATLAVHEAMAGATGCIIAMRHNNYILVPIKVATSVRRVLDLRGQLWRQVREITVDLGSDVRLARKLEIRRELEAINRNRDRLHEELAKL
# Only a part is listed here, and it is no random draw. The source made the active and inactive calls. The call rests on the fitted dose curve; in most records, active means well fitted inhibition curve with a large enough effect; inconclusive means small, poorly fitted or top-dose-only effect, or effect the other way; inactive means flat fitted curve, though single readings scatter.
# Target: ATP-dependent 6-phosphofructokinase (Trypanosoma brucei brucei) (UniProt O15648)
# Assay: qHTS Assay to Find Inhibitors of T. brucei phosphofructokinase; further: nearly all actives have a fitted effect of over 60% in size
# Conditions: T. brucei PFK, ADP-Glo luminescence; at 57.5 µM (top of the series)
# Text: NIH Molecular Libraries Probe Production Network [MLPCN] NIH Chemical Genomics Center [NCGC] Grant: 1 R03 MH092153-01 PI Name: Malcolm Walkinshaw, University of Edinburgh NCGC Assay Overview: Various species of the protozoan family Trypanosomatidae are responsible for a range of serious human diseases in tropical and subtropical areas of the world. […] Many of the disorders caused by trypanosomatids are fatal if left untreated, but most currently used drugs are inefficient and toxic. […] Oxidative metabolism involving the mitochondrial tricarboxylic acid cycle and oxidative phosphorylation are repressed in these parasites, and recent RNA interference (RNAi) experiments have shown that even partial depletion of certain individual glycolytic enzymes can lead to the death of cultured parasites. One such glycolytic enzyme, phosphofructokinase (PFK), catalyzes the formation of fructose-1,6-bisphosphate (F1,6BP) and ADP from fructose-6-phosphate (F6P) and ATP, and in many metabolic circumstances makes an important contribution to the control of flux through the glycolytic pathway. As a specific glycolytic target, PFK is particularly attractive as it catalyzes the first irreversible step in glycolysis, and structural and kinetic studies have shown very substantial and essential differences from corresponding host enzymes, allowing for the discovery of parasite-selective inhibitors. The goal of this screen is to find small-molecule inhibitors of T. brucei PFK using a biochemical assay that measures PFK activity as a function of ADP production. A luminescence-based assay for T. brucei PFK activity has been developed which uses luciferase to detect production of ADP. Traditional luciferase-based nucleotide detection reagents rely on ATP production as a direct substrate for the luciferase reaction; however, PFK catalyzes the transfer of a phosphate from ATP to F6P, resulting in the net depletion of ATP. To directly measure the ADP product of the PFK reaction, we used the ADP-Glo detection kit (Promega), which utilizes two separate reactions to 1) deplete all remaining uncatalyzed ATP and 2) convert all remaining ADP to ATP, which is then detected through a traditional luciferase-coupled reaction. Compounds were screened as a concentration-titration series that ranged from 57 uM to 0.7 nM.
# NCGC Assay Protocol Summary: NCGC Assay Protocol Summary: Substrate buffer was dispensed into white, solid 1536-well plates at 3uL/well in 0.1M triethanolamine (TEA) buffer, pH 8.0, containing final concentrations of 5 mM MgCl2, 0.01% Tween20, 0.5 mM fructose-6-phosphate (F6P) and 0.1mM ATP. Then, 23 nL of compounds or DMSO were delivered to each well using a pin tool. One uL T. brucei PFK (0.1M TEA, 0.01% Tween20, 0.1% bovine serum albumin (BSA) and 1.25nM PFK, final concentrations) was then dispensed, and plates were incubated at room temperature for 45 min. The luminescent detection reagent, ADP-Glo (Promega), was then added in two steps: the first reagent, ADP-Glo (which converts remaining uncatalyzed ATP), was added at 2.5uL/well and incubated for ten minutes at room temperature, and the second component, Kinase Detection reagent (which converts ADP to ATP as a substrate for luciferase-based luminescence), was added immediately after at 5uL/well, followed by one final ten minute room temperature incubation. The plates were measured on a ViewLux plate reader for luminescent signal using a clear filter with a one second exposure. The %Activity was determined from the corrected luminescence values. As no specific T. brucei PFK inhibitors have been identified in the literature, 1x (1.25nM) and 0x PFK enzyme controls (untreated) were included to normalize %Activity of identified inhibitors; 0x enzyme values corresponded to 100%Activity (full inhibition), while 1x PFK enzyme values were used to normalize 0%Activity (no inhibition). Concentration-response curves were fitted to the signals arising from the resulting luminescence. […]
row,Compound,"activity, negative = inhibition"
1,CC1=NCCc2c1[nH]c1ccccc21.O=[N+]([O-])c1cc([N+](=O)[O-])c(O)c([N+](=O)[O-])c1,inactive: 3.22%
2,Cc1ccc(C)c(NP(C)(=O)Oc2ccccc2)c1 (centres undefined),inactive: -7.64%
3,CP(=O)(Nc1cccc(Br)c1)Oc1ccccc1 (centres undefined),inactive: -2.5%
4,Cc1cc(C)cc(OP(C)(=O)Nc2ccccn2)c1 (centres undefined),inactive: 1.84%
5,CCOC(=O)c1ccc(NP(C)(=O)Oc2cc(C)cc(C)c2)cc1 (centres undefined),inactive: -7.25%
6,Cc1cc(C)cc(OP(C)(=O)Nc2ccc(C)cc2C)c1 (centres undefined),inactive: -0.571%
7,COc1ccccc1OP(C)(=O)Nc1cccc(Br)c1 (centres undefined),inactive: 0.771%
8,Cc1nc2ccc3ccccc3c2s1.O=[N+]([O-])c1cc([N+](=O)[O-])c(O)c([N+](=O)[O-])c1,inactive: -7.51%
9,O=[N+]([O-])c1cc([N+](=O)[O-])c(-n2nnc3ccccc32)c([N+](=O)[O-])c1,inactive: 3.61%
10,CP(=O)(Nc1ccc(SC(F)(F)F)cc1)Oc1ccccc1 (centres undefined),inactive: 4.86%
11,CCCOc1ccc(NP(C)(=O)Oc2ccc(Cl)cc2)cc1 (centres undefined),inactive: 1.8%
12,CN1CCCCC1COC(=O)C1(O)c2ccccc2CCc2ccccc21 (centres undefined),inactive: -2.87%
13,COc1ccccc1OP(C)(=O)Nc1c(C)cccc1C (centres undefined),inactive: 3.25%
14,O=[N+]([O-])c1cc([N+](=O)[O-])c(Nc2nnnn2CCO)c([N+](=O)[O-])c1,inactive: 0.714%
15,CC1=C2N=C(C=C3N=C(C(C)=C4[N-][C@@](C)([C@@H]5N=C1[C@](C)(CCC(=O)NC[C@@H](C)OP(=O)([O-])O[C@H]1[C@@H](O)[C@@H](n6cnc7cc(C)c(C)cc76)O[C@@H]1CO)[C@H]5CC(N)=O)[C@@](C)(CC(N)=O)[C@@H]4CCC(N)=O)[C@@](C)(CC(N)=O)[C@@H]3CCC(N)=O)C(C)(C)[C@@H]2CCC(N)=O.[C-]#N.[Co+3],inactive: -13.8%
16,CP(=O)(Nc1ccccc1Br)Oc1ccccc1 (centres undefined),inactive: -1.93%
17,COc1ccccc1OP(C)(=O)Nc1ccccc1 (centres undefined),inactive: -6.39%
18,CP(=S)(Nn1cnnc1)Oc1ccccc1 (centres undefined),inactive: 0.932%
19,CCOC(=O)c1ccc(NP(C)(=O)Oc2ccc(OC)cc2)cc1 (centres undefined),inactive: -5.02%
20,CCOP(C)(=S)SCC(=O)NC(C)C(=O)O (centres undefined),inactive: 7.07%
21,CCc1ccc(OP(C)(=O)N2CCN(c3ccc([N+](=O)[O-])cc3)CC2)cc1 (centres undefined),inactive: -2.44%
22,CP(=O)(NC(=O)Nc1ccccc1)Oc1ccccc1 (centres undefined),inactive: -3.6%
23,Cc1cc(C)cc(OP(C)(=O)Nc2ccc(SC(F)(F)F)cc2)c1 (centres undefined),inactive: 0.0676%
24,CP(=O)(Nc1ccc(SC(F)(F)F)cc1)Oc1ccc(Cl)cc1 (centres undefined),inactive: 1.02%
25,Cc1cccc(C)c1OP(C)(=O)Nc1ccc(SC(F)(F)F)cc1 (centres undefined),inactive: -3.52%
26,CP(=O)(Oc1ccccc1)OC(c1ccccc1)C(F)(F)F (centres undefined),inactive: -0.704%
27,CCN(CC)CCCOC(=O)C(O)(c1ccccc1)c1ccccc1,inactive: 3.07%

row,Compound,"activity, negative = inhibition"
1,Cc1cc(C)cc(OP(C)(N)=O)c1 (centres undefined),inactive: 3.37%
2,COc1ccccc1OP(C)(=O)Nc1cc(Cl)ccc1C (centres undefined),inactive: 0.582%
3,COc1ccc(OP(C)(=O)Nc2cccc(F)c2)cc1 (centres undefined),inactive: 1.31%
4,COc1ccccc1OP(C)(=O)Nc1ccc(C)cc1 (centres undefined),inactive: -0.691%
5,Cc1ccc(NP(C)(=O)Oc2ccccc2)c(C)c1 (centres undefined),inactive: -14.6%
6,CCOC(=O)c1ccc(NP(C)(=O)Oc2ccccc2)cc1 (centres undefined),inactive: 2.01%
7,O=[N+]([O-])c1ccc2c(c1)C=Nc1ccccc1O2,inactive: -1.31%
8,CC(C)(C)c1ccc(OP(C)(=O)Nc2ccc(SC(F)(F)F)cc2)cc1 (centres undefined),inactive: 1.34%
9,Cc1cccc(C)c1OP(C)(N)=O (centres undefined),inactive: 8.09%
10,O=[N+]([O-])c1cc([N+](=O)[O-])c(Nc2cccnc2)c([N+](=O)[O-])c1,inactive: -0.466%
11,CP(=O)(OCCOc1ccccc1)OCCOc1ccccc1,inactive: -6.07%
12,CP(=O)(Nc1ccc(Cl)cc1Cl)Oc1ccccc1 (centres undefined),inactive: 0.814%
13,Cc1nc2ccc3ccccc3c2o1.O=[N+]([O-])c1cc([N+](=O)[O-])c(O)c([N+](=O)[O-])c1,inactive: -0.576%
14,COc1ccccc1OP(C)(=O)Nc1ccc(C)c(C)c1 (centres undefined),inactive: -0.218%
15,COc1ccc(OP(C)(=O)Nc2ccccc2Br)cc1 (centres undefined),inactive: -10.9%
16,Cc1cc(C)cc(OP(C)(=O)Nc2cccc(C(F)(F)F)c2)c1 (centres undefined),inactive: 0.119%
17,CP(=O)(Nc1ccccn1)Oc1ccccc1 (centres undefined),inactive: -14.1%
18,COc1ccccc1OP(C)(=O)Nc1ccc(C)cc1C (centres undefined),inactive: 1.02%
19,CCc1ccc(OP(C)(=O)O)cc1,inactive: 0.297%
20,O=[N+]([O-])c1cc([N+](=O)[O-])c(Nc2ccccn2)c([N+](=O)[O-])c1,inactive: -5.99%
21,Cc1c(NP(C)(=O)Oc2ccc(C(C)C)cc2)c(=O)n(-c2ccccc2)n1C (centres undefined),inactive: -10.5%
22,COc1ccc(OP(C)(=O)Nc2ccccn2)cc1 (centres undefined),inactive: 0.17%
23,CN(C)CCOC(=O)C(O)(c1ccccc1)C1CCCC1 (centres undefined),inactive: -0.667%
24,COc1ccccc1OP(C)(=O)Nc1ccc(Br)cc1 (centres undefined),inactive: -2.6%
25,CN(C)C(=O)c1c([N+](=O)[O-])cc([N+](=O)[O-])cc1[N+](=O)[O-],inactive: -6.34%
26,CC(C)(C)c1ccc(OP(C)(=O)O)cc1,inactive: 0.446%
27,COc1ccccc1OP(C)(=O)Nc1ccccc1Br (centres undefined),inactive: 0.457%

row,Compound,"activity, negative = inhibition"
1,CP(=O)(Nc1ccc(Cl)cc1)Oc1ccc(F)cc1 (centres undefined),inactive: -5.23%
2,COc1ccccc1OP(C)(=O)Nc1c(C)n(C)n(-c2ccccc2)c1=O (centres undefined),inactive: -3.17%
3,O=C(OCCCN1CCCC1)C(O)(c1ccccc1)C1CCCCC1 (centres undefined),inactive: 0%
4,CP(=O)(Oc1ccccc1)N1CCOC1=O (centres undefined),inactive: 2.17%
5,CCc1ccc(OP(C)(=O)Nc2cccnc2)cc1 (centres undefined),inactive: 0.357%
6,CCN(CC)CC(O)COC(=O)C(O)(c1ccccc1)C1CCCCC1 (centres undefined),inactive: 0.132%
7,COc1ccc(OP(C)(=O)Nc2ccc(Br)cc2)cc1 (centres undefined),inactive: -0.239%
8,CCOC(=O)c1ccc(NP(C)(=O)Oc2ccc(Cl)cc2)cc1 (centres undefined),inactive: -0.963%
9,CP(=O)(OC12CC3CC(CC(C3)C1)C2)OC12CC3CC(CC(C3)C1)C2,inactive: 0.753%
10,O=[N+]([O-])c1ccc(OP2(=O)COCCO2)cc1 (centres undefined),inactive: -3.61%
11,Cc1cc(-c2cccc3ccccc23)c(C)cn1.O=[N+]([O-])c1cc([N+](=O)[O-])c(O)c([N+](=O)[O-])c1,inactive: -2.44%
12,CN(C)CCOC(=O)C(O)(c1ccccc1)C1CCCCC1 (centres undefined),inactive: -0.886%
13,COc1ccc(NP(C)(=O)Oc2ccccc2OC)cc1 (centres undefined),inactive: -0.329%
14,COc1ccc(OP(C)(=O)Nc2cccc(Br)c2)cc1 (centres undefined),inactive: -2.65%
15,CP(=O)(Nc1ccc2c(c1)OCCO2)Oc1ccccc1 (centres undefined),inactive: 5.14%
16,CCOP(C)(=S)SCC(=O)NC(C)(CC)C(=O)O (centres undefined),inactive: 0.925%
17,CP(=O)(Nc1ccc(SC(F)(F)F)cc1)Oc1ccc(F)cc1 (centres undefined),inactive: -6.23%
18,O=C(OCCN1CCN(CCOCc2ccccc2)CC1)C(O)(c1ccccc1)c1ccccc1,inactive: 5.94%
19,CP(=O)(Nc1ccccc1F)Oc1ccccc1 (centres undefined),inactive: -0.579%
20,CC(C)c1ccc(OP(C)(=O)Nc2ccc(SC(F)(F)F)cc2)cc1 (centres undefined),inactive: -0.0522%
21,CP(=O)(Nc1ccccc1)Oc1ccc(F)cc1 (centres undefined),inactive: -1.92%
22,CCCCCOc1ccc(NP(C)(=O)Oc2ccc(Cl)cc2Cl)cc1 (centres undefined),inactive: -4.01%
23,CCN(CC)CCCOC(=O)C(O)(c1ccccc1)C1CCCCC1 (centres undefined),inactive: 2.63%
24,CCOC(=O)c1ccc(NP(C)(=O)Oc2ccc(F)cc2)cc1 (centres undefined),inactive: -0.144%
25,COc1ccc(OP(C)(=O)Nc2ccc(SC(F)(F)F)cc2)cc1 (centres undefined),inactive: -6.79%
